Pooled drug test results. Numbers come from NIAID ChemDB, via PubChem.

Common to all: growth or infection tests; agent: Mycobacterium tuberculosis

Neighbouring rows are from separate reports.

| compound | strain or isolate | mutations | method | endpoint | tested at | value |
|---|---|---|---|---|---|---|
| CN(C)C/C=C(/c1ccc(-c2ccc(Br)cc2)cc1)c1ccc([N+](=O)[O-])cc1 | H37Ra | - | - | MIC | - | 36.5 µg/mL |
| COC(=O)c1cnc2ccccc2c1 | H37Rv | - | - | MIC | - | >6.25 µg/mL |
| C[C@H]1COc2c(N3CCN(C)CC3)c(F)cc3c(=O)c(C(=O)O)cn1c23 | ATCC 35828 | - | - | MBC | - | 0.5 µg/mL |
| CCOc1ccc(NC(=O)OCCN2CCOCC2)cc1 | My 331/88 | - | - | MIC | - | 1000 µM |
| C/C=C/c1ccc2c(c1)[C@@H](C)[C@H](c1ccc(OC)cc1)O2 | Clinical isolate 91 | isoniazid and streptomycin resistant | resazurin / absorbance | MIC | - | 7.8 µg/mL |
| CCCCCCCOc1ccccc1NC(=O)OCCN1CCOCC1 | My 331/88 | - | - | MIC | - | 32 µM |
| CC(=O)NC[C@H]1CN(c2ccc(N3CCN(Cc4ccc([N+](=O)[O-])o4)CC3)c(F)c2)C(=O)O1 | 16 isolates (MDR) | - | - | Geometric mean MIC | - | 4 µg/mL |
| CCCCCCCCCOc1cccc(NC(=O)OCCN2CCCCC2)c1 | My 331/88 | - | - | MIC | - | 16 µM |
| N[C@H]1CCN(c2nc3c(cc2F)c(=O)c(C(=O)O)cn3C2CC2)C1 | H37Rv | - | - | MIC | - | 0.01 µg/mL |
| O=C(O)CCc1cnc(C2CCCC2)[nH]1 | H37Rv | - | - | inhibition | 6.25 µg/mL | 0% |
| COC1C[C@H](C)[C@@H](OC)C2=CC(=O)C=C(NC(=O)/C(C)=C/C=C\[C@H](C)C(OC(N)=O)/C(C)=C/[C@@H](C)[C@@H]1OC)C2=O | PZA-R | - | - | MIC | - | >12.5 µg/mL |
| C/C=C/c1ccc2oc(-c3ccc(OC)c(OC)c3)c(C)c2c1 | H37Rv | - | resazurin / absorbance | MIC | - | 3.9 µg/mL |
| C[C@]1(COc2ccc(C3CCN(CC/C=C/c4ccc(C(F)(F)F)cc4)CC3)cc2)Cn2cc([N+](=O)[O-])nc2O1 | H37Rv | - | - | MIC | - | 0.003 µg/mL |
| O=C([C@@H](O)CO)N1CC=C(c2c(F)cc(N3C[C@H](COc4ccon4)OC3=O)cc2F)CC1 | H37Rv Erdman | - | broth dilution | MIC | - | 0.5 µg/mL |
| c1ccc(Nc2nc(-c3ccncn3)cs2)nc1 | H37Rv | - | visual reading | MIC | - | 15 µM |
| O=C(c1ccncc1)N1N=C(c2ccco2)CC1(O)C(F)(F)F | RGH103 | - | - | MIC | - | 19.23 µM |
| COC(=O)c1cc2ccccc2nc1C1CCCCC1 | H37Rv | - | - | MIC | - | >6.25 µg/mL |
| Cc1cc(C)c2c(=O)n(CC(O)CN3CCC(Cc4ccccc4)CC3)sc2n1 | H37Rv | - | - | EC50 | - | <12.5 µg/mL |
| CC(C)(C)c1ncc(C(=O)NN)[nH]1 | H37Rv | - | - | inhibition | 6.25 µg/mL | 10% |
| C/C=C/c1ccc2oc(-c3ccc4c(c3)OCO4)c(C)c2c1 | H37Rv | - | resazurin / absorbance | MIC | - | 250 µg/mL |
| C[C@]1(COc2ccc(N3CCC(Nc4cc(Cl)cc(Cl)c4)CC3)cc2)Cn2cc([N+](=O)[O-])nc2O1 | H37Rv | - | - | MIC | - | 0.024 µg/mL |
| NC1[C@H]2CN(c3nc4c(cc3F)c(=O)c(C(=O)O)cn4-c3ccc(F)cc3F)C[C@@H]12 | 206 isolates (susceptible) | - | - | MIC50 | - | 32 µg/mL |
| NC[C@@H]1O[C@H](O[C@H]2[C@@H](O)[C@H](O[C@@H]3[C@@H](O)[C@H](N)C[C@H](N)[C@H]3O[C@H]3O[C@H](CO)[C@@H](O)C[C@H]3N)O[C@@H]2CO)[C@H](N)[C@@H](O)[C@@H]1O[C@H]1O[C@H](CO)[C@@H](O)[C@H](O)[C@@H]1O | H37Rv | - | - | EC50 | - | 25–50 µg/mL |
| COc1cccc2c1cc1c3c(cc4c(c32)OCO4)C(=O)N1 | H37RvSr | - | resazurin | MIC | - | 25 µg/mL |
| CCCCCOc1cccc(NC(=O)OCCN(C)C)c1 | My 331/88 | - | - | MIC | - | 62.5 µM |
| Clc1c(-c2ccccc2)oc(-c2ccccc2)c1CN1CCOCC1 | H37Rv | - | BACTEC | MIC bound | - | >12.5 µg/mL |
| NNC(=O)c1ccncc1 | H37Rv (ATCC 27947) | - | - | MIC | - | 0.06 µg/mL |
| CC(C)(C)OC(=O)C(C1NC2C(=O)OCC2(CO)S1)N1C(=O)c2ccccc2C1=O | H37Rv | - | BACTEC | inhibition | 12.5 µg/mL | -6% |
| COC(=O)CCc1cnc[nH]1 | H37Rv | - | - | inhibition | 6.25 µg/mL | 24% |
| CC(=O)C1=C(O)c2c(C)cc(C)nc2S(=O)(=O)N1C | H37Rv | - | - | EC50 | - | >12.5 µg/mL |
| O=C(c1ccncc1)N1N=C(c2cccs2)CC1(O)C(Cl)(Cl)Cl | RGH104 | - | - | MIC | - | >257 µM |
| CCCCCCCCOc1ccccc1NC(=O)OCCN1CCCCC1 | My 331/88 | - | - | MIC | - | 16 µM |
| Cc1cccc(C)c1Nc1nc(-c2ccccc2)cs1 | H37Rv | - | visual reading | MIC | - | >20 µM |
| CCCCCCCOc1cccc(NC(=O)OCCN2CCCCCC2)c1 | My 331/88 | - | - | MIC | - | 8 µM |
| COc1ccc2nc(/N=C(\N)N=C(N)N)sc2c1 | H37Rv | - | resazurin | inhibition | 6.25 µg/mL | 1% |
| COC(=O)Cc1cc(C2CCCC2)nc2c(C3CCCC3)cccc12 | H37Rv | - | - | inhibition | 6.25 µg/mL | 3% |
| CC1COc2c(N3CCN(C)CC3)c(F)cc3c(=O)c(C(=O)O)cn1c23 | 206 isolates (susceptible) | - | - | MIC90 | - | 1 µg/mL |
| C[C@H]1C[C@H](N)CN1c1cc2c(cc1F)c(=O)c(C(=O)O)cn2-c1ccc(F)cc1F | ATCC 35822 | - | - | MIC | - | 2 µg/mL |
| COc1c(N2CC[C@@H](C(C)(C)N)C2)c(F)cc2c(=O)c3c(=O)[nH]sc3n(C3CC3)c12 | Isoniazid resistant isolate 15 | - | - | MIC | - | 0.06 µg/mL |
| Cc1ccc(C2=NN(C(=O)c3ccncc3)C(O)(C(Cl)(Cl)Cl)C2)cc1 | RGH101 | - | - | MIC | - | >252 µM |
| CCc1ccccc1-n1c2nc(=O)n(C)c(=O)c-2nc2ccccc21 | H37Rv | - | BACTEC | inhibition | 12.5 µg/mL | 11% |
| COC(=O)CNC(=O)c1cnc(C2C3CC4CC(C3)CC2C4)[nH]1 | H37Rv | - | - | MIC | - | >6.25 µg/mL |
| CN(C)CC=C(c1ccccc1)c1ccc(-c2ccc(Br)cc2)cc1 | ALI 3415 | - | - | MIC | - | 40 µg/mL |
| O=C(O)Cc1cc(C2CCCCC2)nc2c(C3CCCCC3)cccc12 | H37Rv | - | - | inhibition | 6.25 µg/mL | 9% |
| NC(=O)c1cnccn1 | M142 | - | - | MIC | - | 8 µg/mL |
| O=[N+]([O-])c1cn2c(n1)O[C@@H](COc1ccc(N3CCC(OCc4ccc(OC(F)(F)F)cc4)CC3)cc1)C2 | H37Rv | - | - | MIC | - | 0.024 µg/mL |
| NS(=O)(=O)OCCCCCCCOS(N)(=O)=O | H37Rv | - | resazurin | MIC bound | - | >6.25 µg/mL |
| CCOC(=O)c1nc(C(C)C)[nH]c1C(C)C | H37Rv | - | - | MIC | - | >6.25 µg/mL |
| CO[C@H]1/C=C/O[C@@]2(C)Oc3c(C)c(O)c4c(O)c(c(/C=N/N5CCN(C6CCCC6)CC5)c(O)c4c3C2=O)NC(=O)/C(C)=C\C=C\[C@H](C)[C@H](O)[C@@H](C)[C@@H](O)[C@@H](C)[C@H](OC(C)=O)[C@@H]1C | H37Rv | - | - | MIC | - | 0.015 µg/mL |
| CCCCCCCOc1cccc(NC(=O)OCCN2CCCCC2)c1 | My 331/88 | - | - | MIC | - | 8 µM |
| O=C(Nc1ccn(-c2ccccn2)n1)NC1CCCC1 | H37Rv | - | visual reading | MIC | - | >20 µM |
| COC(C)(C)C/C=C/C(C)=C/C=C/C(C)=C/C=C/C(C)=C/C=C/C=C(C)/C=C/C=C(C)/C=C/C=C(C)/C=C/CC(C)(C)OC | H37Rv | - | BACTEC | MIC bound | - | >12.5 µg/mL |
| COC(=O)Cc1ccnc2ccccc12 | H37Rv | - | - | MIC | - | >6.25 µg/mL |
| O=C1NNC(=O)c2ccccc2C(=O)S1 | H37Rv | - | BACTEC | inhibition | 12.5 µg/mL | 11% |
| Cc1cc(C)c2c(=O)n(CC(O)CN3CCCCC3)sc2n1 | H37Rv | - | - | inhibition | 12.5 µg/mL | 0% |
| Cc1ccc(C2=NN(C(=O)c3ccncc3)C(O)(C(F)(F)F)C2)cc1 | RGH103 | - | - | MIC | - | 287 µM |
| CCCCCCOc1ccccc1NC(=O)OCCN1CCOCC1 | My 331/88 | - | - | MIC | - | 32 µM |
| Cc1cc(C)c2c(n1)S(=O)(=O)N(CC(=O)NC1CCCCC1)/C(=C(/O)c1ccccc1)C2=O | H37Rv | - | - | EC50 | - | >12.5 µg/mL |
| CCOC(=O)c1cn(CC)c2cc(-n3cccc3)c(F)cc2c1=O | H37Rv | - | resazurin | MIC bound | - | >6.25 µg/mL |
| C[C@]1(COc2ccc(N3CCN(Cc4cc5ccc(Cl)cc5o4)CC3)cc2)Cn2cc([N+](=O)[O-])nc2O1 | H37Rv | - | - | MIC | - | 0.006 µg/mL |
| COc1cc(Nc2nc(NS(=O)(=O)c3cc(C)c(Cl)cc3S)n[nH]2)cc(OC)c1OC | H37Rv | - | BACTEC | MIC bound | - | >12.5 µg/mL |
| COc1cc(OC)c2cc([N+](=O)[O-])c3ccc(=O)oc3c2c1 | H37RvRr | - | resazurin | MIC | - | 50 µg/mL |
| CC1COc2c(N3CCN(C)CC3)c(F)cc3c(=O)c(C(=O)O)cn1c23 | ATCC 35828 | - | - | MBC | - | 2 µg/mL |
| CCOc1c(N=Nc2ccc(Cl)cc2Cl)c(C)nn1C(=S)S | H37Rv | - | BACTEC | MIC | - | ≥12.5 µg/mL |
| CN(C)C/C=C(/c1ccccc1)c1ccc(-c2ccc(Br)cc2)cc1 | H37Ra | - | - | MIC | - | 10 µg/mL |
| FC(F)(F)c1ccc(Nc2nc(-c3ccccn3)cs2)cc1 | H37Rv | - | visual reading | MIC | - | 20 µM |
| CC(O)CN1CC(C)N(CC(C)O)CC1C | H37Rv | - | BACTEC | MIC bound | - | >12.8 µg/mL |
| O=C(Nc1nc(-c2ccccn2)cs1)c1ccccc1O | H37Rv | - | visual reading | MIC | - | 1.4 µM |
| O=C1C=CC(=NOC(=O)c2ccccc2)C=C1 | H37Rv | - | resazurin | inhibition | 6.25 µg/mL | 28% |
| CC[C@H]1OC(=O)[C@H](C)[C@@H](O[C@H]2C[C@@](C)(OC)[C@@H](O)[C@H](C)O2)[C@H](C)[C@@H](O[C@@H]2O[C@H](C)C[C@H](N(C)C)[C@H]2O)[C@](C)(O)C[C@@H](C)CN(C)[C@H](C)[C@@H](O)[C@]1(C)O | ATCC 35828 | - | - | MBC | - | >8 µg/mL |
| COc1cccc(/C=C/C(=O)c2ccccc2)c1O | H37Rv | - | BACTEC | inhibition | 12.5 µg/mL | 54% |
| O=C(O)c1c(C2CCCCC2)nc2ccccc2c1C1CCCCC1 | H37Rv | - | - | inhibition | 6.25 µg/mL | 0% |
| CN1c2ccc(C3N(C(=O)C(F)(F)F)C=CN3C(=O)C(F)(F)F)cc2Sc2cc(C3N(C(=O)C(F)(F)F)C=CN3C(=O)C(F)(F)F)ccc21 | H37Rv | - | BACTEC | inhibition | 12.5 µg/mL | 95% |
| CN(C)CC=C(c1ccc(Br)cc1)c1ccc(-c2ccc(Br)cc2)cc1 | ALI 3342 | - | - | MIC | - | 8.5 µg/mL |
| CC1CNC(=O)C(=O)N1 | H37Rv | - | BACTEC | MIC | - | ≥12.5 µg/mL |
| Cc1cc(C)c2c(n1)S(=O)(=O)N(CC(=O)c1ccccc1)C2=O | H37Rv | - | - | EC50 | - | >12.5 µg/mL |
| CCCCN(C)/N=N/c1nc[nH]c1C(N)=O | H37Rv | - | BACTEC | MIC bound | - | ≤12.5 µg/mL |
| CN(C)C/C=C(\c1ccc(I)cc1)c1ccc(-c2ccc(Br)cc2)cc1 | H37Rv | - | - | MIC | - | 19 µg/mL |
| NC(=S)N/N=C1/C(=O)N(c2ccc(Cl)cc2)C(=O)C1C(=O)Nc1ccc(Cl)cc1 | H37Rv | - | BACTEC | MIC | - | ≥12.8 µg/mL |
| CN(C)C/C=C(/c1ccc(Br)cc1)c1ccc(-c2ccc(Br)cc2)cc1 | ALI 258 | - | - | MIC | - | 8.5 µg/mL |
| Cc1cc(-n2c(C)nc3ccccc3c2=O)on1 | H37Rv | - | BACTEC | MIC bound | - | >12.5 µg/mL |
| CC1COc2c(N3CCN(C)CC3)c(F)cc3c(=O)c(C(=O)O)cn1c23 | INH resistant 912253 | - | broth dilution | MIC | - | 0.5 µg/mL |
| O=C1c2ccccc2C(=O)N1[N+](=O)[O-] | H37Rv | - | BACTEC | inhibition | 12.5 µg/mL | 3% |
| NNC(=O)c1ccncc1 | Isolate M1 | - | - | MIC | - | 1 µg/mL |

6 of the rows above, restated:

compound | strain or isolate | mutations | method | endpoint | tested at | value
CCCCCCCCOc1ccccc1NC(=O)OCCN1CCCCC1 | My 331/88 | - | - | MIC | - | 16 µM
Cc1cc(C)c2c(n1)S(=O)(=O)N(CC(=O)c1ccccc1)C2=O | H37Rv | - | - | EC50 | - | >12.5 µg/mL
CC(C)(C)OC(=O)C(C1NC2C(=O)OCC2(CO)S1)N1C(=O)c2ccccc2C1=O | H37Rv | - | BACTEC | inhibition | 12.5 µg/mL | -6%
O=C(O)c1c(C2CCCCC2)nc2ccccc2c1C1CCCCC1 | H37Rv | - | - | inhibition | 6.25 µg/mL | 0%
C[C@H]1COc2c(N3CCN(C)CC3)c(F)cc3c(=O)c(C(=O)O)cn1c23 | ATCC 35828 | - | - | MBC | - | 0.5 µg/mL
CCCCN(C)/N=N/c1nc[nH]c1C(N)=O | H37Rv | - | BACTEC | MIC bound | - | ≤12.5 µg/mL

MIC bound comes from a single tested concentration. ECn: concentration that inhibits the pathogen or its effect by n%. Inhibition is in % at the dose shown (toxicity tests: loss of growth or viability). Two numbers with a dash give a range or band. Blank or dashed fields: not listed here. MIC50, MIC90 and the like: level of inhibition, or share of isolates inhibited.